These results are taken from ChEMBL document CHEMBL3272034.

The test relates to Ehrlich. Nature of the test: Antitumor activity against mouse Ehrlich carcinoma cells implanted in CD1 mouse assessed as tumor free survivor at 0.5 to 2.5 mg/kg administered every day for 6 days starting on day of challenge.

Structures are written as SMILES. Activity calls are given as the source filed them. The rule behind the calls is not given here.

On to `Cc1[nH]c(=O)[nH]c(=O)c1CN(CCCl)CCCl`, for which the outcome was inactive.
